Anti-infective test results gathered from many reports (values: NIAID ChemDB through PubChem).

Shared fields: enzyme or target tests; organism: HIV-1; protein: Reverse transcriptase; read by: nucleotide incorporation / radiometric; read-out: fold resistance

Two numbers with a dash give a range or band. Fold resistance: result on the changed form divided by that on wild type. Neighbouring rows are from separate reports.

compound	mutations	result
Nc1nc2c(ncn2[C@H]2C[C@H](O)[C@@H](COP(=O)(O)OP(=O)(O)OP(=O)(O)O)O2)c(=O)[nH]1	RT-K65R	1.85
CCOc1cccc(C2(CC)Oc3ccccc3-n3cccc3C2=O)c1	RT-K103N	4.6
CCN1c2ncc(CCOc3ccc(CC(=O)O)c4ccccc34)cc2C(=O)N(C)c2ccc(F)nc21	RT-Y188L	>10
CCC1(c2cccc(N)c2)Oc2ccccc2-n2cccc2C1=O	RT-Y181I	>33.3
CCN1c2ncc(CCOc3ccc(C(=O)O)c4c3CCCC4)cc2C(=O)N(C)c2cccnc21	RT-V106A	>10
CCOCn1c(Cc2ccccc2)c(C(C)C)c(=O)[nH]c1=O	RT-P225H	5
CCC1(c2ccc(COc3cccc(Cl)c3)cc2)Oc2ccccc2-n2cccc2C1=O	RT-L100I	2.5
Cc1cn([C@H]2CC[C@@H](COP(=O)(O)OP(=O)(O)OP(=O)(O)O)O2)c(=O)[nH]c1=O	RT-T139V	1
Nc1nc(=O)n([C@@H]2CC[C@H](COP(=O)(O)OP(=O)(O)OP(=O)(O)O)O2)cc1F	RT-A62V V75I F77L F116Y Q151M	1.64
CC(C)=CCOc1cc(NC(=S)c2ccoc2C)ccc1Cl	RT-V106A	25
CCN1c2ncc(CCOc3ccc(S(N)(=O)=O)c4ccccc34)cc2C(=O)N(C)c2cccnc21	RT-Y188L	1–10
Nc1ncnc2c1ncn2CCOCP(=O)(O)OP(=O)(O)OP(=O)(O)O	RT-K65R	8.1
CCN1c2ncc(CCOc3ccc(/C(C)=C/C(=O)O)c4ccccc34)cc2C(=O)N(C)c2cccnc21	RT-V106A	>10
CCC1(c2ccc(I)cc2)Oc2ccccc2-n2cccc2C1=O	RT-V106A	14.4
Nc1ncnc2c1ncn2[C@H]1CC[C@@H](COP(=O)(O)OP(=O)(O)OP(=O)(O)O)O1	RT-M184V	1.16
CCC1(c2ccc(CNc3cccc(F)c3)cc2)Oc2ccccc2-n2cccc2C1=O	RT-Y181I	>25
CCN1c2ncc(CCOc3ccc(CC(C)C(=O)O)c4ccccc34)cc2C(=O)Nc2c(C)cc(Cl)nc21	RT-Y188L	>10
CCC1(c2ccc(COc3cccnc3)cc2)Oc2ccccc2-n2cccc2C1=O	RT-V106A	6.25
CC(C)=CCN1Cc2cc(Cl)cc3[nH]c(=O)n(c23)C[C@@H]1C	RT-P225H	3
CCC1(c2cccc(Cl)c2)Oc2ccccc2-n2cccc2C1=O	RT-Y181I	22.2
Cc1cn([C@H]2C=C[C@@H](COP(=O)(O)OP(=O)(O)OP(=O)(O)O)O2)c(=O)[nH]c1=O	RT-V106A	1.2

A second listing of 2 rows from above:

compound,mutations,result
CCN1c2ncc(CCOc3ccc(CC(=O)O)c4ccccc34)cc2C(=O)N(C)c2ccc(F)nc21,RT-Y188L,>10
CCC1(c2ccc(COc3cccnc3)cc2)Oc2ccccc2-n2cccc2C1=O,RT-V106A,6.25